In the supplement of paper PMC9931576:
Human monoclonal antibodies against the spike receptor-binding domain (heavy:light variable regions). IC50 against pseudoviruses bearing the spike of naturally observed variants; lower = stronger; >10 µg/ml means not reached at the top dose. No active / inactive call. The stated detection limit is 0.0005 µg/ml; values near or below 0.001 µg/ml lie at the floor of the assay.

Tests used:
Test in all cases: pseudovirus neutralization IC50; higher = weaker neutralization
[1] = target: SARS-CoV-2 Omicron BA.1 spike pseudovirus
Method: (§1)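 Single-round VSV luciferase pseudovirus mixed with antibody dilutions for 1 h and put on Huh-7 cells for about a day; IC50 from the dose curve.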

[2] = target: SARS-CoV-2 Omicron BA.2 spike pseudovirus
Method: as §1

[3] = target: SARS-CoV-2 Omicron BA.2.75 spike pseudovirus
Method: as §1

[4] = target: SARS-CoV-2 Omicron BA.5 spike pseudovirus
Method: as §1

[5] = target: SARS-CoV-2 Omicron BQ.1.1 spike pseudovirus
Method: as §1

[6] = target: SARS-CoV-2 Omicron XBB spike pseudovirus
Method: as §1

[7] = target: SARS-CoV-2 early D614G spike pseudovirus
Method: as §1

Binder | pseudovirus neutralization IC50 [1] [µg/mL] | pseudovirus neutralization IC50 [2] [µg/mL] | pseudovirus neutralization IC50 [3] [µg/mL] | pseudovirus neutralization IC50 [4] [µg/mL] | pseudovirus neutralization IC50 [5] [µg/mL] | pseudovirus neutralization IC50 [6] [µg/mL] | pseudovirus neutralization IC50 [7] [µg/mL]
BD56-167 (protein) chain 1: QVQLVQSGSELKKPGASVKLSCKASGFTFSDYAMIWVRQAPGQGLEWMGWINLNTGSPTYARDFTGRFVFSLDTSADTAYLQISNLKAEDTAVYYCARESRTAMDPFDYWGQGTLVTVSS chain 2: SYVLTQPPSVSVAPGKTARITCGGTEIGSKSVHWYQQKPGQAPMLVIRYDSDRPSGIPERFSGSNSGNTATLTISRVEAGDEADYYCQVWDGSRYHHVVFGGGTKLTVL | > 10 | > 10 | > 10 | > 10 | > 10 | > 10 | > 10
BD56-158 (protein) chain 1: QVQLQESGPGLVKPSETLSLTCTVSGGSISSYYWTWIRQPPGKGLEWIGHIYYNGSTSNNPSLKSRVTISVDTSKSQFSLKLSSVTAADTAVYYCAGYYYDSSGYDYGFDPWGQGILVTVSS chain 2: DIQMTQSPSSLSASVADRVTITCRASQSIRSYLNWYQQKAGKAPKLLIYATTNLQSGVPLRFSGSGSGTDFTLTISSLQPEDFATYYCQQTYSTPLTFGGGTKVDIK | > 10 | > 10 | > 10 | > 10 | > 10 | > 10 | > 10
BD56-166 (protein) chain 1: EVQLVESGGGLVQPGRSLRLSCAASGFTFDDYAMHWVRQAPGKGLEWVSGISWNTESKVYADSVKGRFTISRDSAKNSLYLQMNSLRPEDTAFYYCAKDAASGTGGEYFQHWGQGTLVTVSS chain 2: YVLTQPPSVSVAPGKTARIPCGGDNIGSKSVHWYQQKPGQAPVLVIFYDSDRPSGLPERFSGSNSGNTATLTISRVEAGDEADYYCQVWDSSSSDPVVFGGGTKLTVL | > 10 | > 10 | > 10 | > 10 | > 10 | > 10 | > 10
BD56-155 (protein) chain 1: QVQLVESGGGVVQPGRSLRLSCAASGFTFRNYGMHWVRQAPGKGLEWVAVIWYDGSNKYYADSVKGRFTVSRDNSKNALYLQMNSLRADDTAVYYCARDSDDILTGQAPSGLDVWGQGTTVTVSS chain 2: QSVLTQPPSVSGAPGQRVTISCTGSSSNIGAGYDVHWYQQLPGTAPKLLIYGNTNRPSGVPDRFSGSKSGTSASLAITGLQAEDEADFYCQSYDTYLGGLVFGGGTRLTVL | > 10 | > 10 | > 10 | > 10 | > 10 | > 10 | > 10
BD56-157 (protein) chain 1: QVQLVQSGAEVKKPGASVKVSCKASGYTFTNYAMHWVRQAPGQGLEWMGWINTGNGNTKYSQKFQGRVTISRDTFASIAYMELSSLRSEDTAVFYCARQGLSTVSFAETYLTYEYYFDYWGQGTLVTVSS chain 2: QSALTQPASVSGSPGQSITISCTGTTSDVGAYDFVSWYQQHPGKAPKLMIYDVSNRPSGVSDRFSGSKSGNTASLTISGLQAEDEADYYCSSFTGSSTFVFGTGTKVTVL | > 10 | > 10 | > 10 | > 10 | > 10 | > 10 | > 10
BD56-172 (protein) chain 1: QVQLQESGPGLVKPSETLSLTCTVSGGSISSYYWNWIRQPPGKGLEWIGFVYYNGSTNYNPSLKSRVTISVDTSKSQFSLRLTSVTAADTAVYYCAGDYGDRYYYFGLDVWAQGTRVTVSS chain 2: EIVLTQSPGTLSLSPGERATLSCRASQSVYSTYLAWYQQKAGQAPRLLIYGASSRATGIPDRFSGSGSGTDFTLTISRLEPEDFAVYFCQQYGGSRTFGQGTKVEIK | 6.62 | 7.51 | 5.77 | 7.37 | 6.54 | 6.1 | 4.98
